Anti-infective test results gathered from many reports (values: NIAID ChemDB through PubChem).

Shared fields: whole-cell or culture tests; organism: Cytomegalovirus

An empty or dashed field is not shown. ECn is the concentration giving n% inhibition of infection, replication or growth. Rows are shuffled and stem from different studies.

Cc1ccc(C)c(CS(=O)c2cccc[n+]2[O-])c1 ; cell line: HEL ; measure: EC50 ; read by: cytopathic effect ; value: 28 µg/mL
O=C(O)P(=O)(O)O ; cell line: MRC-5 ; strain: 209 ; measure: EC50 ; value: 108.5 µM
CC1(C)[C@@H](CO)CC[C@@]1(C)Cn1cnc2c(N)ncnc21 ; cell line: HEL ; strain: AD169 ; measure: EC50 ; read by: cytopathic effect ; value: >50 µg/mL
CCOc1ccccc1CS(=O)c1cccc[n+]1[O-] ; cell line: HEL ; measure: EC50 ; read by: cytopathic effect ; value: >50 µg/mL
CC(C)(C)[Si](C)(C)OC[C@H]1O[C@@H](n2ccc(=O)[nH]c2=O)[C@H](O[Si](C)(C)C(C)(C)C)[C@@]12O[C@H]2C(=O)NN ; cell line: MRC-5 ; measure: EC50 ; read by: plaque count ; value: 23 µM
NC1=NS(=O)(=O)N(Cc2ccccc2)c2nc[nH]c21 ; cell line: HEL ; strain: AD169 ; measure: EC50 ; read by: plaque count ; value: >50 µg/mL
COC(O)[C@@H]1OC12[C@@H](CO[Si](C)(C)C(C)(C)C)O[C@@H](n1cc(C)c(=O)[nH]c1=O)[C@@H]2O[Si](C)(C)C(C)(C)C ; cell line: MRC-5 ; measure: EC50 ; read by: plaque count ; value: 12 µM
OC[C@H]1O[C@@H](c2cc(C(O)CBr)c(F)cc2F)C[C@@H]1O ; cell line: HEL ; strain: DAVIS ; measure: EC50 ; read by: cytopathic effect ; value: >20 µg/mL
COc1cccnc1SCc1ccccc1 ; cell line: HEL ; measure: EC50 ; read by: cytopathic effect ; value: >50 µg/mL
CC(C)(C)[Si](C)(C)OC[C@H]1O[C@@H](n2ccc(=O)[nH]c2=O)[C@H](O[Si](C)(C)C(C)(C)C)C1(O)C(Cl)C(N)=O ; cell line: MRC-5 ; measure: EC50 ; read by: plaque count ; value: >5 µM
Cc1cc[n+]([O-])c(S(=O)(=O)Cc2ccc(Cl)cc2)c1 ; cell line: HEL ; measure: EC50 ; read by: cytopathic effect ; value: >5 µg/mL
C#C[C@@H](O)C1=C[C@@H](n2cnc3c(N)ncnc32)[C@H](O)[C@@H]1O ; cell line: HEL ; strain: AD169 ; measure: EC50 ; read by: cytopathic effect ; value: >50 µg/mL
O=C(CCCCCCC(=O)Nc1cc(S(=O)(=O)O)cc2cc(S(=O)(=O)O)cc(O)c12)Nc1cc(S(=O)(=O)O)cc2cc(S(=O)(=O)O)cc(O)c12 ; cell line: MRC-5 ; strain: Isolate T-1095 ; measure: EC50 ; read by: plaque count ; value: 25 µM
Nc1ncnc2c1ncn2C[C@H](O)CO ; cell line: HEL ; strain: AD169 ; measure: EC50 ; read by: cytopathic effect ; value: 200 µg/mL
Nc1ccn([C@@H]2O[C@H](CO)[C@@H](O)[C@@H]2O)c(=O)n1 ; strain: TOWNE ; measure: MIC ; value: 1.1 µg/mL
Nc1ccn(C[C@@H](CO)OCP(=O)(O)O)c(=O)n1 ; strain: DAVIS ; measure: EC50 ; read by: plaque count ; value: 0.1 µg/mL
NC1=NS(=O)(=O)N(Cc2ccccc2)c2nc(Cc3ccccc3)[nH]c21 ; cell line: HEL ; strain: AD169 ; measure: EC50 ; read by: plaque count ; value: 9.2 µg/mL
CN1c2ccc([N+](=O)[O-])cc2C(C)(C)C12C=Cc1cc([N+](=O)[O-])ccc1O2 ; cell line: HEL ; strain: DAVIS ; measure: EC50 ; read by: plaque count ; value: >8.7 µM
Nc1nc2c(ncn2[C@@H](CCO)OCCO)c(=O)[nH]1 ; cell line: HFF ; measure: EC50 ; read by: cytopathic effect ; value: >200 µM
COc1ccc2c(c1)OC1(C=C2)N(C)c2ccccc2C1(C)C ; cell line: HEL ; strain: DAVIS ; measure: EC50 ; read by: plaque count ; value: >10.4 µM
Cc1ccccc1CS(=O)(=O)c1c(C)ccc[n+]1[O-] ; cell line: HEL ; measure: EC50 ; read by: cytopathic effect ; value: >5 µg/mL
COC(=O)CC(SCCO)n1cc(C)c(=O)[nH]c1=O ; cell line: HFF ; measure: EC50 ; read by: cytopathic effect ; value: >200 µM
CC1(C)[C@@H](CCO)C[C@H]1n1cnc2c(N)ncnc21 ; cell line: HEL ; strain: AD169 ; measure: EC50 ; read by: plaque count ; value: 20 µg/mL
CC[C@H](O)C1=C[C@@H](n2cnc3c(N)ncnc32)[C@H](O)[C@@H]1O ; cell line: HEL ; strain: AD169 ; measure: EC50 ; read by: cytopathic effect ; value: >50 µg/mL
CCCCCc1ccc(-c2cc3cn([C@H]4C[C@H](O)[C@@H](CCl)O4)c(=O)nc3o2)cc1 ; cell line: HEL ; measure: EC50 ; value: >5 µM
OC[C@H]1O[C@@H](c2cc(C(O)C(Br)Br)c(F)cc2F)C[C@@H]1O ; cell line: HEL ; strain: DAVIS ; measure: EC50 ; read by: cytopathic effect ; value: >200 µg/mL
Cc1ccc[n+]([O-])c1SC(C)c1ccccc1 ; cell line: HEL ; measure: EC50 ; read by: cytopathic effect ; value: >50 µg/mL
CCCCCCCCCCCCCCCC(=O)Nc1cc(S(=O)(=O)O)cc2cc(S(=O)(=O)O)cc(O)c12 ; cell line: MRC-5 ; strain: Isolate T-1082 ; measure: EC50 ; read by: plaque count ; value: 12 µM
C[C@@]1(O)[C@@H](CO)O[C@@H](n2cnc3c(N)ncnc32)[C@@H]1O ; cell line: VERO ; strain: AD169 ; measure: EC50 ; read by: cytopathic effect ; value: >5 µg/mL
CC1(C)[C@@H](CO)CC[C@@]1(C)Cn1cnc2c(=O)[nH]cnc21 ; cell line: HEL ; strain: AD169 ; measure: EC50 ; read by: cytopathic effect ; value: >50 µg/mL
O=S(=O)(O)c1cc(NS(=O)(=O)c2ccc(-c3ccc(S(=O)(=O)Nc4cc(S(=O)(=O)O)c5cccc(S(=O)(=O)O)c5c4)cc3)cc2)cc2c(S(=O)(=O)O)cccc12 ; cell line: MRC-5 ; strain: Isolate T-1082 ; measure: EC50 ; read by: plaque count ; value: 40 µM
CC1(C)[C@@H](CO)CC[C@@]1(C)Cn1ccc(=O)[nH]c1=O ; cell line: HEL ; strain: DAVIS ; measure: EC50 ; read by: cytopathic effect ; value: >50 µg/mL
CN1c2ccccc2C(C)(C)C12C=Nc1c(ccc3ccccc13)O2 ; cell line: HEL ; strain: DAVIS ; measure: EC50 ; read by: plaque count ; value: >9.8 µM
CC(Cl)(c1ccccc1)S(=O)(=O)c1cccc[n+]1[O-] ; cell line: HEL ; measure: EC50 ; read by: cytopathic effect ; value: 50 µg/mL
C#C[C@H](O)C1=C[C@@H](n2cnc3c(N)ncnc32)[C@H](O)[C@@H]1O ; cell line: HEL ; strain: AD169 ; measure: EC50 ; read by: cytopathic effect ; value: >50 µg/mL
Clc1ccc(CSc2ccccn2)cc1 ; cell line: HEL ; measure: EC50 ; read by: cytopathic effect ; value: 0.31 µg/mL
COC(=O)c1cc2ccc3c(c2c(-c2ccc4c(c2)OCO4)c1C(=O)OC)OCO3 ; measure: EC50 ; value: 8.1 µM
COc1ccc2c(c1)C=CC1(O2)N(C)c2ccccc2C1(C)C ; cell line: HEL ; strain: AD169 ; measure: EC50 ; read by: plaque count ; value: >10.4 µM
O=c1[nH]c(=O)n([C@H]2C[C@H](O)[C@@H](CCl)O2)cc1I ; cell line: HEL ; measure: EC50 ; value: >5 µM
Nc1ncnc2c1ncn2[C@@H]1O[C@H](CO)[C@](O)(C(F)(F)F)[C@H]1O ; cell line: VERO ; strain: AD169 ; measure: EC50 ; read by: cytopathic effect ; value: >50 µg/mL
Nc1ncnc2c1ncn2C[C@@H](CO)OCP(=O)(O)O ; cell line: HEL ; strain: AD169 ; measure: EC50 ; read by: cytopathic effect ; value: 0.3 µg/mL
Nc1nc(Cl)c2ncn([C@@H](CCO)OCCO)c2n1 ; cell line: HFF ; measure: EC50 ; read by: cytopathic effect ; value: 88 µM
Cc1cc(N2CCCC2)c2ncc(CSCCc3ccccc3)n2c1 ; strain: DAVIS ; measure: EC50 ; read by: plaque count ; value: 20 µg/mL
Cc1ccc(C)c(C(Br)S(=O)(=O)c2cccc[n+]2[O-])c1 ; cell line: HEL ; measure: EC50 ; read by: cytopathic effect ; value: >50 µg/mL
COC(=O)/C=C1/[C@@H](O[Si](C)(C)C(C)(C)C)[C@H](n2ccc(=O)[nH]c2=O)O[C@@H]1CO[Si](C)(C)C(C)(C)C ; cell line: MRC-5 ; measure: EC50 ; read by: plaque count ; value: 1 µM
CC1(C)[C@@H](CO)CC[C@@]1(C)Cn1cc(I)c(=O)[nH]c1=O ; cell line: HEL ; strain: DAVIS ; measure: EC50 ; read by: cytopathic effect ; value: >50 µg/mL
CC1(C)[C@@H](CCO)C[C@H]1n1nnc2c(N)nc(N)nc21 ; cell line: HEL ; strain: DAVIS ; measure: EC50 ; read by: plaque count ; value: >20 µg/mL
O=S(=O)(Cc1ccccc1I)c1cccc[n+]1[O-] ; cell line: HEL ; measure: EC50 ; read by: cytopathic effect ; value: >20 µg/mL
Nc1nc2c(ccn2[C@H]2CO[C@@H](CO)C2)c(=O)[nH]1 ; cell line: HEL ; strain: AD169 ; measure: EC50 ; read by: cytopathic effect ; value: >40 µg/mL
CN1c2ccc(Cl)cc2C(C)(C)C12C=Nc1c(ccc3ccccc13)O2 ; cell line: HEL ; strain: AD169 ; measure: EC50 ; read by: plaque count ; value: >44 µM
CC1(C)[C@@H](CCO)C[C@H]1n1cnc2c(=O)[nH]cnc21 ; cell line: HEL ; strain: DAVIS ; measure: EC50 ; read by: plaque count ; value: >50 µg/mL
Nc1nc(F)nc2c1ncn2[C@@H]1C=C(CO)[C@@H](O)[C@H]1O ; cell line: HEL ; strain: DAVIS ; measure: EC50 ; read by: cytopathic effect ; value: >5 µg/mL
CN1c2ccccc2C(C)(C)C12C=Cc1cc([N+](=O)[O-])ccc1O2 ; cell line: HEL ; strain: AD169 ; measure: EC50 ; read by: plaque count ; value: >12.4 µM
Nc1nc(Cl)c2ncn([C@H]3CO[C@@H](CO)C3)c2n1 ; cell line: HEL ; strain: DAVIS ; measure: EC50 ; read by: cytopathic effect ; value: >40 µg/mL
CC1(C)[C@@H](CCO)C[C@H]1n1nnc2c(Cl)nc(N)nc21 ; cell line: HEL ; strain: AD169 ; measure: EC50 ; read by: plaque count ; value: >50 µg/mL
COc1ccc(OC)c(CS(=O)(=O)c2cccc[n+]2[O-])c1 ; cell line: HEL ; measure: EC50 ; read by: cytopathic effect ; value: >50 µg/mL
CCCCCCCCc1cc2cn([C@H]3C[C@H](O)[C@@H](CCl)O3)c(=O)nc2o1 ; cell line: HEL ; measure: EC50 ; value: >5 µM
Cc1ccccc1C(Sc1cccc[n+]1[O-])C(N)=O ; cell line: HEL ; measure: EC50 ; read by: cytopathic effect ; value: >50 µg/mL
CN1c2ccc(Cl)cc2C(C)(C)C12C=Cc1c(ccc3ccccc13)O2 ; cell line: HEL ; strain: DAVIS ; measure: EC50 ; read by: plaque count ; value: >44.2 µM

Again, the opening 5 rows:

| smiles | cell line | strain | measure | read by | value |
|---|---|---|---|---|---|
| Cc1ccc(C)c(CS(=O)c2cccc[n+]2[O-])c1 | HEL | - | EC50 | cytopathic effect | 28 µg/mL |
| O=C(O)P(=O)(O)O | MRC-5 | 209 | EC50 | - | 108.5 µM |
| CC1(C)[C@@H](CO)CC[C@@]1(C)Cn1cnc2c(N)ncnc21 | HEL | AD169 | EC50 | cytopathic effect | >50 µg/mL |
| CCOc1ccccc1CS(=O)c1cccc[n+]1[O-] | HEL | - | EC50 | cytopathic effect | >50 µg/mL |
| CC(C)(C)[Si](C)(C)OC[C@H]1O[C@@H](n2ccc(=O)[nH]c2=O)[C@H](O[Si](C)(C)C(C)(C)C)[C@@]12O[C@H]2C(=O)NN | MRC-5 | - | EC50 | plaque count | 23 µM |